PubChem BioAssay AID1224833 | University of Georgia – 2016

- Assay: 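Human genes whose knock-down alters rotavirus replication in monkey cells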 (primary screen)
- Cell system: monkey MA104 kidney cells
- Reagent: siRNA pool against human genes, 50 nM
- Time to read-out: 48 h knock-down before infection; read 24 h after infection
- Conditions: infection with rotavirus strain RV3 two days after transfection; infectious dose for this stage not given
- Read-out: 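Rotavirus antigen per well by fluorescent immunoassay, normalised to non-targeting control wells on each plate and given as a standard z-score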
- Scale: z-score vs non-targeting control: higher = more rotavirus replication than with non-targeting control
- Hit rule: In these data the active calls have z-score vs non-targeting control at about -1 or lower, or at about 1 or higher
- Calls: active = z-score beyond 1 either way; inactive = z-score within 1 of zero
This is an unselected part of about 12,000 reagents. About 5,600 of them (46%) count as active. 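Active calls cover z-scores past 1 in both directions, so they include lowered as well as raised rotavirus replication.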 A number with no mark means an inactive call.

{"gene": "SHD", "z-score vs non-targeting control": -0.622}
{"gene": "OMA1", "z-score vs non-targeting control": 0.68}
{"gene": "BLMH", "z-score vs non-targeting control": "1.24 (active)"}
{"gene": "CLEC16A", "z-score vs non-targeting control": 0.254}
{"gene": "CNBP", "z-score vs non-targeting control": 0.645}
{"gene": "RBMS1", "z-score vs non-targeting control": -0.359}
{"gene": "UROS", "z-score vs non-targeting control": "2.21 (active)"}
{"gene": "LETM1", "z-score vs non-targeting control": 0.0055}
{"gene": "AQP5", "z-score vs non-targeting control": "-1.54 (active)"}
{"gene": "CPAP", "z-score vs non-targeting control": "1.22 (active)"}
{"gene": "TNFSF10", "z-score vs non-targeting control": 0.178}
{"gene": "GHRHR", "z-score vs non-targeting control": "-1.13 (active)"}
{"gene": "ANKLE1", "z-score vs non-targeting control": 0.819}
{"gene": "PPL", "z-score vs non-targeting control": -0.851}
{"gene": "ZP2", "z-score vs non-targeting control": 0.306}
{"gene": "B3GALT4", "z-score vs non-targeting control": "-1.92 (active)"}
{"gene": "CLDN15", "z-score vs non-targeting control": "-1.04 (active)"}

The list goes on; the last 3 above are carried over.
{"gene": "ZP2", "z-score vs non-targeting control": 0.306}
{"gene": "B3GALT4", "z-score vs non-targeting control": "-1.92 (active)"}
{"gene": "CLDN15", "z-score vs non-targeting control": "-1.04 (active)"}
{"gene": "RORA", "z-score vs non-targeting control": -0.528}
{"gene": "SP4", "z-score vs non-targeting control": "-2 (active)"}
{"gene": "GPR19", "z-score vs non-targeting control": "-1.28 (active)"}
{"gene": "EIF3I", "z-score vs non-targeting control": -0.919}
{"gene": "SLCO4C1", "z-score vs non-targeting control": "-1.78 (active)"}
{"gene": "EMID1", "z-score vs non-targeting control": 0.112}
{"gene": "HPS3", "z-score vs non-targeting control": 0.0245}
{"gene": "OR2J2", "z-score vs non-targeting control": -0.185}
{"gene": "MED16", "z-score vs non-targeting control": "2.05 (active)"}
{"gene": "NWD1", "z-score vs non-targeting control": "2.62 (active)"}
{"gene": "SAMD12", "z-score vs non-targeting control": "1.37 (active)"}
{"gene": "CBR1", "z-score vs non-targeting control": "-1.31 (active)"}
{"gene": "PROX2", "z-score vs non-targeting control": "1.26 (active)"}
{"gene": "GPR132", "z-score vs non-targeting control": -0.788}
{"gene": "PRDM15", "z-score vs non-targeting control": 0.195}
{"gene": "ETAA1", "z-score vs non-targeting control": "-1.41 (active)"}
{"gene": "ZNF613", "z-score vs non-targeting control": 0.0662}
{"gene": "GSDMC", "z-score vs non-targeting control": "-1.98 (active)"}
{"gene": "AFF2", "z-score vs non-targeting control": "-1.05 (active)"}
{"gene": "RASGRP3", "z-score vs non-targeting control": "-3.54 (active)"}
{"gene": "BPIFA3", "z-score vs non-targeting control": -0.334}
{"gene": "TMPRSS7", "z-score vs non-targeting control": "-1.24 (active)"}
{"gene": "ZNF443", "z-score vs non-targeting control": -0.795}
{"gene": "MAL", "z-score vs non-targeting control": 0.0761}
{"gene": "MDGA2", "z-score vs non-targeting control": -0.528}
{"gene": "LZTS1", "z-score vs non-targeting control": "-2.17 (active)"}
{"gene": "NANOS2", "z-score vs non-targeting control": -0.0324}
{"gene": "OVOL2", "z-score vs non-targeting control": -0.193}
{"gene": "RARS2", "z-score vs non-targeting control": -0.559}
{"gene": "CFLAR", "z-score vs non-targeting control": "1.41 (active)"}
